Measured values from several laboratories, pooled; numbers as filed in NIAID ChemDB.

All rows: growth or infection tests; agent: HIV-1; cell line: CEM + CEM-SS; read-out: EC50

ECn is the concentration giving n% inhibition of infection, replication or growth. Lines come from different laboratories, so protocols vary. An empty or dashed field is not shown.

Fc1cccc(F)c1C1SCc2nc3ccccc3n21 ; strain: UC040-R (RT-Y181C) ; mutations: RT-Y181C ; method: cytopathic effect / XTT ; result: >69 µM
CC(C)=CCN1Cc2cc(Cl)cc3[nH]c(=S)n(c23)C[C@@H]1C ; strain: G ; method: cytopathic effect / MTT ; result: 0.188 µM
CCCc1cc(=O)oc2c3c(c4c(c12)OC(C)(C)C=C4)O[C@@H](C)[C@H](C)[C@@H]3O ; strain: IIIB ; method: XTT ; result: 0.2 µM
Cc1ccnc2c1NC(=O)c1cccnc1N2C1CC1 ; strain: IIIB HEPT-resistant (RT P236L) ; mutations: RT-P236L ; method: cytopathic effect / XTT ; result: 0.3 µM
Cc1ccnc2c1NC(=O)c1cccnc1N2C1CC1 ; strain: NL4-3 (RT L100I) ; mutations: RT-L100I ; method: cytopathic effect / XTT ; result: 0.1 µM
O=S(=O)(c1ccccc1)c1ccccc1 ; strain: IIIB ; mutations: RT-Y181C ; method: cytopathic effect / XTT ; result: 114.1 µM
Cc1occc1C(=S)Nc1ccc(Cl)c(/C=N/OC(C)(C)C)c1 ; strain: RF ; method: cytopathic effect / XTT ; result: 0.1 µM
Cc1ccnc2c1NC(=O)c1cccnc1N2C1CC1 ; strain: NL4-3 1 (RT K101E) ; mutations: RT-K101E ; method: XTT ; result: 0.3 µM
Cc1c(Sc2ccccc2)n(COCCO)c(=O)[nH]c1=O ; strain: IIIB ; mutations: RT-L100I ; method: cytopathic effect / XTT ; result: 204 µM
Cc1cn([C@H]2C[C@H](N=[N+]=[N-])[C@@H](CO)O2)c(=O)[nH]c1=O ; strain: Oxathiin carboxanilide-resistant RT L100I ; mutations: RT-L100I ; method: XTT ; result: 0.04 µM
CCc1c(C(=O)c2cc(C)cc(C)c2)n(CC2CC=CC2)c(=O)[nH]c1=O ; strain: 4XAZT/Y181C (RT D67N K70R Y181C T215Y K219Q) ; mutations: RT-D67N K70R Y181C T215Y K219Q ; method: cytopathic effect / XTT ; result: 0.0003 µM
C/C=C/CSc1cc(NC(=S)c2ccsc2C)ccc1Cl ; strain: Calanolide A-resistant (RT T139I) ; mutations: RT-T139I ; method: XTT ; result: 0.4 µM
C/C=C/CSc1cc(NC(=S)c2ccsc2C)ccc1Cl ; strain: TIBO R82150-resistant (RT A98G V108I) ; mutations: RT-A98G V108I ; method: cytopathic effect / XTT ; result: 1.2 µM
Cc1cn([C@H]2C[C@H](N=[N+]=[N-])[C@@H](CO)O2)c(=O)[nH]c1=O ; strain: 4xAZT(RT-D67N K70R T215Y K219Q) ; mutations: RT-D67N K70R T215Y K219Q ; method: cytopathic effect / XTT ; result: 0.82 µM
CCCc1cc(=O)oc2c3c(c4c(c12)OC(C)(C)C=C4)O[C@H](C)[C@@H](C)[C@@H]3O ; strain: NL4-3 ; mutations: RT-L74V ; method: XTT ; result: 0.1 µM

For reference, 2 entries again:

smiles	strain	mutations	method	result
CCCc1cc(=O)oc2c3c(c4c(c12)OC(C)(C)C=C4)O[C@H](C)[C@@H](C)[C@@H]3O	NL4-3	RT-L74V	XTT	0.1 µM
Cc1occc1C(=S)Nc1ccc(Cl)c(/C=N/OC(C)(C)C)c1	RF		cytopathic effect / XTT	0.1 µM